From ChEMBL document CHEMBL5346973 (J Med Chem, 2023)

Chains of the proteins cited; added tags and fusions are not shown. Residues count along the entry.
UniProt P04756, 21-457 limits assumed: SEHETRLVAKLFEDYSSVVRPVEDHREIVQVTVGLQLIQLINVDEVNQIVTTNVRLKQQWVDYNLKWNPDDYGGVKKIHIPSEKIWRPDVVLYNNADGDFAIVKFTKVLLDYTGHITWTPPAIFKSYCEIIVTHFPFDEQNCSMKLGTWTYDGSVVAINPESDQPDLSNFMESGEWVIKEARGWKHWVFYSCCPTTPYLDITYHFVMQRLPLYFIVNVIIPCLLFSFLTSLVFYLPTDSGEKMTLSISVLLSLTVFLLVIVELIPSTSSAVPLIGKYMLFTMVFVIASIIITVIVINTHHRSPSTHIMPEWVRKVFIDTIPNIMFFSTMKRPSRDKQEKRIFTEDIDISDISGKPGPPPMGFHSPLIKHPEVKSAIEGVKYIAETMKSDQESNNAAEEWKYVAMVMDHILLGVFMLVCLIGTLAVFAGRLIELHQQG
UniProt P09690, 24-501 partner limits assumed: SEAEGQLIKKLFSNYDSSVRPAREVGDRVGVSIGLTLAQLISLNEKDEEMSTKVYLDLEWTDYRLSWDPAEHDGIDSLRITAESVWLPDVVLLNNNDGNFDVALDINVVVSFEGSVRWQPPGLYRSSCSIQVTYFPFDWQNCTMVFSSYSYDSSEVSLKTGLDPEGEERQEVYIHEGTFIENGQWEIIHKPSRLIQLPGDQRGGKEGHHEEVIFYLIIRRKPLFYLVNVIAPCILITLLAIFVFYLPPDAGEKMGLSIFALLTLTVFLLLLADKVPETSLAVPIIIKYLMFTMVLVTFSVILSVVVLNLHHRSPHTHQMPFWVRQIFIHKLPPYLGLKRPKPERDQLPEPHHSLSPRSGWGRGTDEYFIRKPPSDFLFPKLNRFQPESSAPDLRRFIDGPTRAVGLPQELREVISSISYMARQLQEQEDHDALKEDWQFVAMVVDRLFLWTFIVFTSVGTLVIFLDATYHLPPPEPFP
UniProt P02716, 25-520 partner limits assumed: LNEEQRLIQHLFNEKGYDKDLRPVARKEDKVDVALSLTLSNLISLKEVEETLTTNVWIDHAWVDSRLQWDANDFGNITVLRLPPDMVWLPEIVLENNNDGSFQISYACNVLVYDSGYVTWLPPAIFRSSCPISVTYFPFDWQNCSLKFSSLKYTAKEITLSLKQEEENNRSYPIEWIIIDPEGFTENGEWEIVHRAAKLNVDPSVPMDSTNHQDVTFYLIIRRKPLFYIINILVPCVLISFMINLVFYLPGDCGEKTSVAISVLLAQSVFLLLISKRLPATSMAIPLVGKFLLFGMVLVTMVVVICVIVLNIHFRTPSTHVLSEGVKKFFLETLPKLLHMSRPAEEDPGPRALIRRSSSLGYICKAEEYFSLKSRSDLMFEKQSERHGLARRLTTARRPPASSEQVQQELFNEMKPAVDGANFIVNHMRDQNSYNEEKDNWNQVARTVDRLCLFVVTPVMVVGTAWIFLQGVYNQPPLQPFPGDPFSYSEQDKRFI
UniProt P20782, 21-493 partner limits assumed: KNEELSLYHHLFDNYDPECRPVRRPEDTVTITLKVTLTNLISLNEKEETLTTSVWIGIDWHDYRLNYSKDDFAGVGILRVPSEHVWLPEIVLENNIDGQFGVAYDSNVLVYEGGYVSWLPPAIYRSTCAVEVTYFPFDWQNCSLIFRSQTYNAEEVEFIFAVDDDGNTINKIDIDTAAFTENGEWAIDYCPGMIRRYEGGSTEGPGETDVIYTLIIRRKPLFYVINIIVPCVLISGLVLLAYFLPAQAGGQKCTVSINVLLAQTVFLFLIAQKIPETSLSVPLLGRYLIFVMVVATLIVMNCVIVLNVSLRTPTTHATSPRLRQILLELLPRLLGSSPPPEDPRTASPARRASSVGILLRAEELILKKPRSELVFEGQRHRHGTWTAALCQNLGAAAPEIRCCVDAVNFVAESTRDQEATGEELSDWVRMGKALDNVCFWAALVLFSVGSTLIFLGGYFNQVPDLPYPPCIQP

What was measured:
[1] = Selectivity ratio of IC50 for mouse alpha1beta1deltaepsilon nACh receptor to IC50 for rat alpha9alpha10 nACh receptor
[2] = target: Nicotinic acetylcholine receptor alpha1/beta1/epsilon/delta (Mus musculus) (UniProt P04756+P09690+P02716+P20782); assay: Antagonist activity at mouse alpha1beta1deltaepsilon nACh receptor expressed in Xenopus oocyte assessed as inhibition of acetylcholine-induced response at -70 mV holding potential by measuring ratio of IC50 by voltage-clamp based electrophysiological assay relative to GeXIVA; conditions: filed as antagonist

| Structure (SMILES) | Ratio IC50 [1] | Ratio IC50 [2] |
| --- | --- | --- |
| CC[C@H](C)[C@@H]1NC(=O)[C@H](CCCNC(=N)N)NC(=O)[C@H](CCCNC(=N)N)NC(=O)[C@@H](NC(=O)[C@H](Cc2ccc(O)cc2)NC(=O)[C@H](CCCNC(=N)N)NC(=O)[C@H](CCCNC(=N)N)NC(=O)[C@H](CCCNC(=N)N)NC(=O)[C@H](CCCNC(=N)N)NC(=O)[C@H](CC(=O)O)NC(=O)[C@H](C)NC(=O)[C@@H]2CCCN2C(=O)[C@H](CO)NC(=O)[C@H](CCCNC(=N)N)NC(=O)[C@@H]2CSSC[C@H](NC(=O)[C@@H](N)[C@@H](C)O)C(=O)N[C@@H](CCCNC(=N)N)C(=O)N[C@@H](CO)C(=O)N[C@@H](CO)C(=O)NCC(=O)N[C@@H](CCCNC(=N)N)C(=O)N[C@@H](Cc3ccc(O)cc3)C(=O)N2)CSSC[C@@H](C(=O)N[C@H](C(=O)O)C(C)C)NC(=O)[C@H](C)NC(=O)[C@H](CC(=O)O)NC(=O)[C@H]([C@@H](C)O)NC1=O | 88.2 | 1.9 |
| CC[C@H](C)[C@@H]1NC(=O)[C@H](CCCNC(=N)N)NC(=O)[C@H](CCCNC(=N)N)NC(=O)[C@@H](NC(=O)[C@H](Cc2ccc(O)cc2)NC(=O)[C@H](CCCNC(=N)N)NC(=O)[C@H](CCCNC(=N)N)NC(=O)[C@H](CCCNC(=N)N)NC(=O)[C@H](CCCNC(=N)N)NC(=O)[C@H](CC(=O)O)NC(=O)[C@H](Cc2ccc(O)cc2)NC(=O)[C@@H]2CCCN2C(=O)[C@H](CO)NC(=O)[C@H](CCCNC(=N)N)NC(=O)[C@@H]2CSSC[C@H](NC(=O)[C@@H](N)[C@@H](C)O)C(=O)N[C@@H](CCCNC(=N)N)C(=O)N[C@@H](CO)C(=O)N[C@@H](CO)C(=O)N[C@@H](C)C(=O)N[C@@H](CCCNC(=N)N)C(=O)N[C@@H](Cc3ccc(O)cc3)C(=O)N2)CSSC[C@H](C(=O)N[C@H](C(=O)O)C(C)C)NC(=O)[C@H](C)NC(=O)[C@H](CC(=O)O)NC(=O)[C@H]([C@@H](C)O)NC1=O | 253 | 2.2 |
| CC[C@H](C)[C@@H]1NC(=O)[C@H](CCCNC(=N)N)NC(=O)[C@H](CCCNC(=N)N)NC(=O)[C@@H](NC(=O)[C@H](Cc2ccc(O)cc2)NC(=O)[C@H](CCCNC(=N)N)NC(=O)[C@H](CCCNC(=N)N)NC(=O)[C@H](CCCNC(=N)N)NC(=O)[C@H](CCCNC(=N)N)NC(=O)[C@H](CC(=O)O)NC(=O)[C@H](Cc2ccc(O)cc2)NC(=O)[C@@H]2CCCN2C(=O)[C@H](CO)NC(=O)[C@H](CCCNC(=N)N)NC(=O)[C@@H]2CSSC[C@H](NC(=O)[C@@H](N)[C@@H](C)O)C(=O)N[C@@H](CCCNC(=N)N)C(=O)N[C@@H](CO)C(=O)N[C@@H](CO)C(=O)NCC(=O)N[C@@H](CCCNC(=N)N)C(=O)N[C@@H](Cc3ccc(O)cc3)C(=O)N2)CSSC[C@@H](C(=O)N[C@@H](C)C(=O)O)NC(=O)[C@H](C)NC(=O)[C@H](CC(=O)O)NC(=O)[C@H]([C@@H](C)O)NC1=O | 113 | 3.2 |
| CC[C@H](C)[C@@H]1NC(=O)[C@H](CCCNC(=N)N)NC(=O)[C@H](CCCNC(=N)N)NC(=O)[C@@H]2CSSC[C@H](NC(=O)[C@H](Cc3ccc(O)cc3)NC(=O)[C@H](CCCNC(=N)N)NC(=O)CNC(=O)[C@H](CO)NC(=O)[C@H](CO)NC(=O)[C@H](CCCNC(=N)N)NC(=O)[C@@H](NC(=O)[C@@H](N)[C@@H](C)O)CSSC[C@@H](C(=O)N[C@H](C(=O)O)C(C)C)NC(=O)[C@H](C)NC(=O)[C@H](CC(=O)O)NC(=O)[C@H]([C@@H](C)O)NC1=O)C(=O)N[C@@H](CCCNC(=N)N)C(=O)N[C@@H](CO)C(=O)N[C@@H](C)C(=O)N[C@@H](Cc1ccc(O)cc1)C(=O)N[C@@H](CC(=O)O)C(=O)N[C@@H](CCCNC(=N)N)C(=O)N[C@@H](CCCNC(=N)N)C(=O)N[C@@H](CCCNC(=N)N)C(=O)N[C@@H](CCCNC(=N)N)C(=O)N[C@@H](Cc1ccc(O)cc1)C(=O)N2 | 104 | 1.2 |
| CC[C@H](C)[C@@H]1NC(=O)[C@H](CCCNC(=N)N)NC(=O)[C@H](CCCNC(=N)N)NC(=O)[C@@H](NC(=O)[C@H](Cc2ccc(O)cc2)NC(=O)[C@H](CCCNC(=N)N)NC(=O)[C@H](CCCNC(=N)N)NC(=O)[C@H](CCCNC(=N)N)NC(=O)[C@H](CCCNC(=N)N)NC(=O)[C@H](CC(=O)O)NC(=O)[C@H](Cc2ccc(O)cc2)NC(=O)[C@H](C)NC(=O)[C@H](CO)NC(=O)[C@H](CCCNC(=N)N)NC(=O)[C@@H]2CSSC[C@H](NC(=O)[C@@H](N)[C@@H](C)O)C(=O)N[C@H](CCCNC(=N)N)C(=O)N[C@@H](CO)C(=O)N[C@@H](CO)C(=O)NCC(=O)N[C@@H](CCCNC(=N)N)C(=O)N[C@@H](Cc3ccc(O)cc3)C(=O)N2)CSSC[C@@H](C(=O)N[C@H](C(=O)O)C(C)C)NC(=O)[C@H](C)NC(=O)[C@H](CC(=O)O)NC(=O)[C@H]([C@@H](C)O)NC1=O | 53.1 | 1.6 |
| CC[C@H](C)[C@@H]1NC(=O)[C@H](CCCNC(=N)N)NC(=O)[C@H](CCCNC(=N)N)NC(=O)[C@@H]2CSSC[C@H](NC(=O)[C@H](Cc3ccc(O)cc3)NC(=O)[C@H](CCCNC(=N)N)NC(=O)CNC(=O)[C@H](CO)NC(=O)[C@H](CO)NC(=O)[C@H](CCCNC(=N)N)NC(=O)[C@@H](NC(=O)[C@@H](N)[C@@H](C)O)CSSC[C@@H](C(=O)N[C@H](C(=O)O)C(C)C)NC(=O)[C@H](C)NC(=O)[C@H](CC(=O)O)NC(=O)[C@H]([C@@H](C)O)NC1=O)C(=O)N[C@@H](CCCNC(=N)N)C(=O)N[C@@H](CO)C(=O)N1CCC[C@H]1C(=O)N[C@@H](Cc1ccc(O)cc1)C(=O)N[C@@H](CC(=O)O)C(=O)N[C@@H](CCCNC(=N)N)C(=O)N[C@@H](CCCNC(=N)N)C(=O)N[C@@H](C)C(=O)N[C@@H](CCCNC(=N)N)C(=O)N[C@@H](Cc1ccc(O)cc1)C(=O)N2 | 15.9 | 1.1 |
| CC[C@H](C)[C@@H]1NC(=O)[C@H](CCCNC(=N)N)NC(=O)[C@H](CCCNC(=N)N)NC(=O)[C@@H]2CSSC[C@H](NC(=O)[C@H](Cc3ccc(O)cc3)NC(=O)[C@H](CCCNC(=N)N)NC(=O)CNC(=O)[C@H](CO)NC(=O)[C@H](CO)NC(=O)[C@H](CCCNC(=N)N)NC(=O)[C@@H](NC(=O)[C@@H](N)[C@@H](C)O)CSSC[C@@H](C(=O)N[C@H](C(=O)O)C(C)C)NC(=O)[C@H](C)NC(=O)[C@H](CC(=O)O)NC(=O)[C@H]([C@@H](C)O)NC1=O)C(=O)N[C@@H](CCCNC(=N)N)C(=O)N[C@@H](CO)C(=O)N1CCC[C@H]1C(=O)N[C@@H](Cc1ccc(O)cc1)C(=O)N[C@@H](CC(=O)O)C(=O)N[C@@H](CCCNC(=N)N)C(=O)N[C@@H](CCCNC(=N)N)C(=O)N[C@@H](CCCNC(=N)N)C(=O)N[C@@H](C)C(=O)N[C@@H](Cc1ccc(O)cc1)C(=O)N2 | 24.1 | 0.8 |
| CC[C@H](C)[C@@H]1NC(=O)[C@H](CCCNC(=N)N)NC(=O)[C@H](CCCNC(=N)N)NC(=O)[C@@H]2CSSC[C@H](NC(=O)[C@H](Cc3ccc(O)cc3)NC(=O)[C@H](CCCNC(=N)N)NC(=O)CNC(=O)[C@H](CO)NC(=O)[C@H](CO)NC(=O)[C@H](CCCNC(=N)N)NC(=O)[C@@H](NC(=O)[C@@H](N)[C@@H](C)O)CSSC[C@@H](C(=O)N[C@H](C(=O)O)C(C)C)NC(=O)[C@H](C)NC(=O)[C@H](CC(=O)O)NC(=O)[C@H]([C@@H](C)O)NC1=O)C(=O)N[C@@H](CCCNC(=N)N)C(=O)N[C@@H](CO)C(=O)N1CCC[C@H]1C(=O)N[C@@H](Cc1ccc(O)cc1)C(=O)N[C@@H](CC(=O)O)C(=O)N[C@@H](CCCNC(=N)N)C(=O)N[C@@H](C)C(=O)N[C@@H](CCCNC(=N)N)C(=O)N[C@@H](CCCNC(=N)N)C(=O)N[C@@H](Cc1ccc(O)cc1)C(=O)N2 | 19.6 | 1.9 |
